The record followed here is patent US11571416B2, “Amodiaquine analogs and methods of uses thereof” (priority 2017, dated 2023).

Each structure is given as a SMILES string. The index is printed as in the source, without its formula.

In the series the test system is EBOV-GFP (recombinant Ebolavirus encoding a GFP reporter gene). It is filed as cell-based.

For the compound `CCN(CC)Cc1cc(Nc2ccnc3cc(Cl)ccc23)ccc1O` [Amodiaquine], the Selectivity index turned out to be 37 and the “Selectivity index (SI)” value was 37.
